{
  "source": "patent US20050124645A1",
  "about": "“Methods and compositions for increasing CD4lymphocyte immune responsiveness” (priority 1998, published 2005)",
  "key": {"[1]": {"tested_on": "JAK3", "test": "JAK3 expression and tyrosine phosphorylation (immunoprecipitation/Western blot) in TCR/CD3-stimulated CD4+ T cells with or without prior CD4 ligation", "assay_type": "cell-based, human", "details": "20 U/ml cytokine; FIG. 4", "description": "In this experiment, the present inventors determined the activation status of JAK3 in CD4^+ T cells which were activated through the TCR subsequent to CD4 ligation.\nBriefly, the purified CD4^+ T cells were incubated with or without gp120 and anti-gp120 antibody or anti-CD4 for 1 hour at 37° C. 3×10^6 cells per well were incubated at 37° C. in an anti-CD3 mAb coated (anti-CD3, OKT3, 50 μg/ml, ATCC) 12-well plate. Cells were harvested after various times and lysed in Tris-buffered saline (TBS) containing 1% NP-40, phosphatase inhibitors and protease inhibitors. […] The proteins were transferred to nitrocellulose membrane and immunoblotted with antiphosphotyrosine mAb (anti-P-Tyr, Ab-2, Oncogene Science) Positive protein bands were detected with horseradish peroxidase (HRP)-conjugated goat anti-mouse IgG (Jackson ImmunoResearch) and SuperSignal Substrate (SSS, Pierce). […]\nIn some experiments, 1.5×10^6 cell equivalents of post-nuclear lysate were boiled with sample buffer and separated by 7.5% SDS-PAGE. Nitrocellulose membrane was immunoblotted with (anti-JAK3 and then stripped and immunoblotted with anti-actin mAb (anti-actin, Sigma), as described above. Optical density (O.D.) of positive bands was measured with the Stratagene Eagle Eye II. […]"}, "[2]": {"tested_on": "purified human CD4+ T cells", "test": "Anti-TCR induced proliferation ([3H]-thymidine) of CD4-ligated purified CD4+ T cells, rescue by cytokines", "assay_type": "cell-based", "description": "Heparinized venous blood from healthy adult human donors was separated on a Ficoll-Paque (Pharmacia Biotech) gradient to obtain lymphocytes. CD4^+ T cells were isolated by incubation with anti-CD8 mAb (OKT8, 20 Ag/ml, ATCC), followed by negative selection on goat anti-mouse IgG coated Immulan beads (Biotecx Laboratories).\nSpecifically, the purified CD4^+ T cells in balanced salts solution were incubated with or without gp120 (rgp120SF2, 10 μg/ml) and crosslinked with anti-gp120 antibody (1:250 dilution) or anti-CD4 mAb (anti-CD4, Leu-3α, 20 μg/ml) for 1 hr at 37° C.\nProliferation in response to plate-bound anti-TCR was determined as follows. Cells were washed, resuspended in RPMI-1640 culture media (GIBCO) supplemented with 10% fetal bovine serum (FBS, Gemini BioProducts) and 1×10^5 cells were added to triplicate wells of an anti-T cell receptor monoclonal antibody-coated (anti-TCR, BMA-031, 50 μg/ml) 96-well plate (Becton Dickinson). […] Culture plates were incubated for 3 days at 37° C. with 1 μCi/Well [^3H]-thymidine (NEN) present during the final 5 hours of culture. The cells were harvested and processed to determine ^3H-thymidine incorporation."}, "[3]": {"tested_on": "CD4+ T cells from HIV seropositive individuals", "details": "in vitro; Adachi et al. 1996; cited from earlier work"}, "[4]": {"tested_on": "HIV-1 LTR", "test": "HIV-1 LTR-luciferase activity in resting CD4+ T cells", "assay_type": "cell-based", "details": "FIG. 17", "text": "Resting CD4^+ T cells were transfected with a construct containing luciferase under the control of HIV-1 LTR or a control luciferase construct (Dual-luciferase© Reporter Assay System, Promega, Madison, Wis.). The cells were also optionally transfected with an expression vector encoding STAT5. […] The luciferase activity of the cellular lysates was subsequently measured."}, "[5]": {"tested_on": "IL-2R (α-chain, CD25)", "test": "Activation-induced IL-2R (CD25) expression on CD4 primed T cells by flow cytometry", "assay_type": "cell-based, human", "details": "20 U/ml cytokine; 24 hours; FIGS. 2A, 2B", "description": "Expression of high affinity IL-2R (CD25) was also analyzed in CD4 primed T cells. To determine the expression of IL-2R (α-chain, CD25), the culture plates were set up as described in Example 1 and incubated at 37° C. for 24 hours. 2×10^5 cells were stained with FITC-conjugated anti-CD25 mAb (Pharmingen) and analyzed by flow cytometry (Coulter XL)."}, "[6]": {"tested_on": "JAK3", "test": "JAK3 kinase activity (phosphorylation of STAT5) in peripheral blood T cells of an HIV-infected patient", "assay_type": "cell-based, human", "details": "anti-CD3 stimulation; rIL-2 20 U/ml; FIG. 10", "description": "Peripheral blood T cells isolated 5 from a healthy, non-infected donor served as a control. 0.5×10^6 cells per-well (24 well culture plate) were incubated at 37° C. in an anti-CD3 mAb coated (anti-CD3, OKT3, 10 μg/ml) plate for in the presence and absence of rIL-2 (20 U/ml). Cells were harvested at the designated times and Western blots using anti-JAK3, anti-actin, or anti phosphoSTAT5 (pSTAT5) were prepared as described in Example 3."}, "[7]": {"tested_on": "JAK3", "test": "JAK3 expression (Western blot) in mock- or HIV-1 NL4-3-infected CD4+ T cell PHA blasts", "assay_type": "cell-based, human", "details": "mock-infected and HIV infected cultures; 20 U/ml; 48 hours; FIGS. 8A, 8B", "description": "In this experiment, purified human CD4^+ T cells isolated as described above and activated with PHA for 3 days were infected for 4 days with a laboratory cloned strain of HIV-1, NL4-3. […] After the infection period, 0.5×10^6 cells per well were incubated at 37° C. in an anti-CD3 mAb coated (anti-CD3, OKT3, 10 μg/ml) plate for 48 hours in the presence of 20 U/ml recombinant IL-2 or IL-7. Cells were harvested and lysed with TBS/1% NP40 and analyzed on 7.5% SDS PAGE. Western blots using anti-JAK3 or anti-actin were prepared as described in Example 3."}, "[8]": {"tested_on": "HIV LTR", "test": "HIV LTR driven luciferase in HeLa cells transfected with IL-2 receptor chains and JAK3", "assay_type": "cell-based", "details": "with or without Nef vector, presence or absence of IL-2, FIG. 12E", "text": "HeLa cells were also transfected with vectors containing an HIV LTR driven luciferase, IL-2 receptor chains and JAK3. The cells were also transfected with a vector with or without Nef and cultured in the presence or absence of IL-2. […] Therefore, Nef alone is sufficient to alter LTR activity."}},
  "note": "“Also recorded” adds a separate entry of the source.",
  "data": [
    {"substance": "IL-2: cytokine which binds to receptors on T cells having γc; recombinant, R&D Systems", "values": [
      {"measurement": "reversal of gp120 or anti-CD4 induced inhibition of JAK3 expression and activation", "setting": "[1]", "value": "completely reversed"},
      {"measurement": "anti-TCR induced proliferative response of CD4-ligated T cells", "setting": "[2]; 20 U/ml cytokine, gp120 or anti-CD4 ligation before plate-bound anti-TCR, 3 days, FIG. 1", "value": "restored the proliferative response"},
      {"measurement": "rescue of CD4 primed T cells by late cytokine addition", "setting": "[2]; added after 24 hrs of activation, data not shown", "value": "failed to rescue"},
      {"measurement": "apoptosis of CD4+ T cells", "setting": "[3]", "value": "prevents apoptosis"},
      {"measurement": "activity from the HIV-1 LTR (luciferase activity), IL-2 in combination with STAT5", "setting": "[4]; IL-2 plus STAT5 expression vector", "value": "decreased the activity"},
      {"measurement": "activity from the HIV-1 LTR (luciferase activity)", "setting": "[4]; STAT5 expression vector or IL-2 for 1 hour", "value": "did not further increase"},
      {"measurement": "activation-induced CD25 expression on CD4 primed T cells", "setting": "[5]", "value": "restored activation-induced CD25 expression"},
      {"measurement": "JAK3 kinase activity (phosphorylation of STAT5) in T lymphocytes of HIV-infected patient", "setting": "[6]", "value": "restored the JAK3 kinase activity; also recorded: restores JAK3 kinase activity"},
      {"measurement": "JAK3 expression in unstimulated T cells", "setting": "[7]", "value": "significant increase"},
      {"measurement": "HIV LTR activity (luciferase)", "setting": "[8]", "value": "significant increase in activity"}
    ]}
  ]
}
